Values of other authors, collected in publication PMC12271536.

What was measured:
MPro^WT [1] = conditions: 28 °C, cited from earlier work; for ΔG / ΔH / ΔS: ITC; for 1/Ka (Kd): buffer B, 30 µM protein, previous ITC results
MPro^WT [2] = conditions: DSF; cited from earlier work

Compound	ΔG (MPro^WT [1])	ΔH (MPro^WT [1])	ΔS (MPro^WT [1])	1/Ka (Kd) (MPro^WT [1])	ΔTm (difference in Tm in presence and absence of inhibitor) (MPro^WT [2])
Cn1cnc(Cn2c(=O)[nH]/c(=N\c3cc4cn(C)nc4cc3Cl)n(Cc3cc(F)c(F)cc3F)c2=O)n1	-11.2 kcal/mol	-15.4 ± 0.01 kcal/mol	−13.9 cal/mol/K	6 ± 3 nM	
CC(C)(C)[C@H](NC(=O)C(F)(F)F)C(=O)N1C[C@H]2[C@@H]([C@H]1C(=O)N[C@H](C#N)C[C@@H]1CCNC1=O)C2(C)C	–11.2 kcal/mol	–10.8 ± 0.70 kcal/mol	1.57 cal/mol/K	7 ± 3 nM	
GC373		-6.7 ± 0.10 kcal/mol	9.1 cal/mol/K	150 ± 30 nM	19.8 °C
